Measurements taken from BindingDB's records for 10.1016/0960-894X(95)00348-W.

Sequences of proteins named here, by UniProt entry; tags and fusion partners are left off. Residues count along the entry.
UniProt P00809, 28-306 limits assumed: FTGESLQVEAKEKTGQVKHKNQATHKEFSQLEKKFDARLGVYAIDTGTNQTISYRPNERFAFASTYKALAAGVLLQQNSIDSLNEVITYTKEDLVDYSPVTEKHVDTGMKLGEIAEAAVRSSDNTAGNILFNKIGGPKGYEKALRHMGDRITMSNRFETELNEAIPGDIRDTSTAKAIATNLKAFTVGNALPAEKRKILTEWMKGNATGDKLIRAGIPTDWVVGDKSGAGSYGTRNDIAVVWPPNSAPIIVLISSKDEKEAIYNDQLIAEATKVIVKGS

How the values were obtained:
Beta-lactamase 1 [1] = molecular target: T1, Beta-lactamase 1 (Bacillus cereus, UniProt P00809); assay: (§1) Tested for the ability to inhibit Beta-lactamase of Bacillus cereus (class A enzyme) with 10 minutes pre-incubation
Beta-lactamase 1 [2] = molecular target: T1, Beta-lactamase 1; assay: ChEBML_40228; protocol: as §1

## C[C@@]1(CCl)S[C@@H]2[C@@H](Br)C(=O)N2[C@H]1C(=O)O
Beta-lactamase 1 [1]
  IC50: 1 mM
Beta-lactamase 1 [2]
  IC50: > 5 mM

## C[C@@]1(CCl)S[C@@H]2[C@@H](F)C(=O)N2[C@H]1C(=O)O
Beta-lactamase 1 [2]
  IC50: > 5 mM

## C[C@@]1(CCl)S[C@@H]2[C@@H](Cl)C(=O)N2[C@H]1C(=O)O
Beta-lactamase 1 [2]
  IC50: > 5 mM
